In US20160250213A1, “FORMULATIONS OF AZAINDOLE COMPOUNDS” (priority 2013, published 2016):

Test system: influenza A virus
Assay type: in vivo, mice
Conditions: 1, 3 or 10 mg/kg BID

In the case of `O=C(O)[C@H]1C2CCC(CC2)C1Nc1nc(-c2c[nH]c3ncc(F)cc23)ncc1F` (stereo partly shown) [Compound (1)], the “dosing initiation post infection up to which complete protection from death is provided” value is reported as “up to 72 h”.
